A mixed list of measured activities; the numbers were collected in NIAID ChemDB.

All rows: cytotoxicity tests; cells: MDBK; measure: CC50

An empty or dashed field is not shown. Conditions beyond the fields shown may differ between rows. CCn: concentration that lowers growth or viability of the cells by n%.

smiles | method | result
NC(=O)C1=CSN([C@@H]2O[C@H](COP(=O)([O-])CP(=O)([O-])OCC3OC(n4cnc5c(N)ncnc54)C(F)C3O)[C@@H](O)[C@H]2O)N1 | - | >100 µM
Nc1ncnc2c1ncn2[C@H]1C[C@H](O)[C@@H](CO)O1 | - | 250 µM
O[C@H]1[C@H](O)[C@@H](O)CN2CC[C@H](O)[C@H]12 | - | >1000 µM
OC[C@H]1O[C@@H](n2cnc3c(NC4CCCCCC4)ncnc32)[C@H](O)[C@@H]1O | - | >400 µM
COc1cc(O)c(CC=C(C)C)c(O)c1C(=O)/C=C/c1ccc(O)cc1 | - | 6.1 µg/mL
NC(=O)c1cccc([C@@H]2O[C@H](CO)[C@@H](O)[C@H]2O)c1 | - | 6 µM
CCCCCCCCCN1C[C@H](O)[C@@H](O)[C@H](O)[C@H]1CO | - | ≤300 µM
COc1c(C)c2c(c(O)c1C/C=C(\C)CCCO)C(=O)OC2 | - | 37 µM
CCCOCCCCCCN1C[C@H](O)[C@@H](O)[C@H](O)[C@H]1CO | - | >2000 µM
OC[C@H]1O[C@@H](n2cnc3c(NC4CCCCCC4)ncnc32)C[C@@H]1O | - | 320 µM
OC[C@@H]1[C@@H](O)[C@H](O)[C@@H](O)CN1CCCCc1ccccc1 | - | 1000 µM
CC12COS(=O)(=O)CC1=C(c1ccc(C(F)(F)F)cc1)C(=O)O2 | MTT | >20 µM
CC1(C)OCC(CCCCN2C[C@H](O)[C@@H](O)[C@H](O)[C@H]2CO)O1 | - | >1000 µM
COC(=O)/C(C)=C/Cc1c(O)c2c(c(C)c1OC)COC2=O | - | >100 µM
CC12COS(=O)(=O)CC1=C(c1ccc(Br)cc1)C(=O)O2 | MTT | >20 µM
OC[C@H]1O[C@@H](n2cnc3c(NC4CCCCCC4)nc(Cl)nc32)[C@H](O)[C@@H]1O | - | 131 µM
OC[C@@H]1[C@@H](O)[C@H](O)[C@@H](O)CN1CCCC1CCCCC1 | - | 300 µM
OC[C@H]1O[C@@H](n2cnc3c(NC4CCCC4)cc(Cl)nc32)[C@H](O)[C@@H]1O | - | 180 µM
C/C=C1/C(O[C@@H]2O[C@H](CO)[C@@H](O)[C@H](O)[C@H]2O)CC=C(C(=O)OC)C1CC(=O)OCCc1ccc(O)c(O)c1 | - | 1233 µg/mL
NC(=O)C1=CSN([C@@H]2O[C@H](COP(=O)([O-])CP(=O)([O-])OCC3OC(n4cnc5c(N)ncnc54)C(O)C3O)[C@@H](O)[C@H]2O)N1 | - | >100 µM
CC12COS(=O)(=O)CC1=C(c1ccc(F)c(F)c1)C(=O)O2 | MTT | >20 µM
OC[C@H]1O[C@@H](n2cnc3c(NC4CC4)cc(Cl)nc32)C[C@@H]1O | - | 185 µM
NC(=O)c1ncn([C@@H]2O[C@H](CO)[C@@H](O)[C@H]2O)c1O | - | >100 µM

A second listing of 3 rows from above:

smiles | method | result
C/C=C1/C(O[C@@H]2O[C@H](CO)[C@@H](O)[C@H](O)[C@H]2O)CC=C(C(=O)OC)C1CC(=O)OCCc1ccc(O)c(O)c1 | - | 1233 µg/mL
COc1c(C)c2c(c(O)c1C/C=C(\C)CCCO)C(=O)OC2 | - | 37 µM
OC[C@H]1O[C@@H](n2cnc3c(NC4CCCCCC4)nc(Cl)nc32)[C@H](O)[C@@H]1O | - | 131 µM